The record followed here is the supplement of paper PMC3578754.

Fold change is the IC50 on the isolate divided by the IC50 on a reference virus; 1 = unchanged, higher = more resistant. Changes are given against the subtype B consensus. No active / inactive call. The values were gathered from many studies (numbered anew) with different assays, which the source does not name. Most viruses are clinical isolates; some are laboratory strains or clones with known resistance changes. Isolates with mixed residues are left out; stretches that were not sequenced show no change. Round top values that many isolates share are read here as limits; other very high values and 0.1 may be limits too.

Holding throughout (test): fold change of IC50 against reference virus; higher = more resistant
Compound in one test: Nc1ccn([C@H]2CC[C@@H](CO)O2)c(=O)n1 [zalcitabine]
On the procedure: (§1)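 Cell-culture drug susceptibility tests of virus bearing the reverse transcriptase of each isolate, gathered from many studies.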

Compound in another test: Cc1cn([C@H]2C=C[C@@H](CO)O2)c(=O)[nH]c1=O [stavudine]
How it is done: as §1

Compound in another test: O=C1Nc2ccc(Cl)cc2[C@@](C#CC2CC2)(C(F)(F)F)O1 [efavirenz]
On the procedure: as §1

Compound in a further test: Nc1nc(NC2CC2)c2ncn([C@H]3C=C[C@@H](CO)C3)c2n1 [abacavir]
On the procedure: as §1

Compound in the next test: O=c1[nH]cnc2c1ncn2[C@H]1CC[C@@H](CO)O1 [didanosine]
How it is done:
as §1

Compound in a further test: Cc1ccnc2c1NC(=O)c1cccnc1N2C1CC1 [nevirapine]
How it is done:
as §1

Compound in another test: CC(C)Nc1cccnc1N1CCN(C(=O)c2cc3cc(NS(C)(=O)=O)ccc3[nH]2)CC1 [delavirdine]
On the procedure:
as §1

Compound in another test: Cc1cn([C@H]2C[C@H](N=[N+]=[N-])[C@@H](CO)O2)c(=O)[nH]c1=O [zidovudine]
How it is done: as §1

Consider “HIV-1 isolate 1588 (reverse transcriptase changes: V35I E40F M41L K43E S68G L74I A98G K103N V108I V118I K122E S162C M184V G190A L210W R211K T215Y K219N A272P K277R T286P A288P L289N, study 40)”, for which the “fold change of IC50 against reference virus” value (“fold change of IC50” for short) in the test with zalcitabine is 2; in the test with stavudine, 2; with efavirenz, 40; with abacavir, 10; with didanosine, 6; in the test with nevirapine, 69. Besides, the “fold change of IC50” value with delavirdine is 35; with zidovudine, 103.

For the test system “HIV-1 isolate 198 (reverse transcriptase changes: V35L M41L A98G K103N K104N V118I K122E I142L A158P Y188L I202V L210W R211K T215Y V245M, study 40)”, the “fold change of IC50” value turned out to be 2 with zalcitabine; 1 with stavudine; 63 with efavirenz; 3 with abacavir; 7 with didanosine; 396 in the test with nevirapine. The “fold change of IC50” value with delavirdine was found to be 201; with zidovudine, 125.

“HIV-1 isolate 1171 (reverse transcriptase changes: K20R M41L K101R K103N T128I I135V I142V N147H Y181C V189I R211T F214L T215Y, study 40)”: the “fold change of IC50” value in the test with zalcitabine was determined as 1; with stavudine, 1; with efavirenz, 47; in the test with abacavir, 4; in the test with didanosine, 2; with nevirapine it was 321. For the same test system, the entries for the “fold change of IC50” value with delavirdine and with zidovudine were 51 and 3, respectively.

On to “HIV-1 isolate 1052 (reverse transcriptase changes: A62V S68G T69K K70G V75I F77L Y115F F116Y K122E Q151M K166R D177E M184V R211K K277R I293V E297K, study 112)”, for which the “fold change of IC50” value in the test with zalcitabine was 65.4; with stavudine, 11.3; with efavirenz, 0.8; in the test with abacavir, 20; with didanosine it was 20.1; in the test with nevirapine, 0.6. The “fold change of IC50” value came out at 1.4 with delavirdine and 228 in the test with zidovudine.

For the test system “HIV-1 isolate 410 (reverse transcriptase changes: R83K D123E V245M D250E A272P I293V V317A M357T A376T E399D A400T, study 54)”, the “fold change of IC50” value in the test with zalcitabine amounted to 1; in the test with stavudine, 1; with efavirenz, 0.8; in the test with abacavir, 1; with didanosine, 1; with nevirapine, 1.1. The “fold change of IC50” value with delavirdine was determined as 1.9; in the test with zidovudine it was 1.1.

“HIV-1 isolate 1080 (reverse transcriptase changes: M41L D123E I135T I142T D177E V179I M184V G196E L210W T215Y L228R, study 112)”: the “fold change of IC50” value with zalcitabine was 2.6; with stavudine it was 1.7; with efavirenz, 0.4; with abacavir, 8.5; with didanosine, 1.7; with nevirapine, 0.6. Further, the “fold change of IC50” value with delavirdine was found to be 0.4; in the test with zidovudine, 14.1.

As to “HIV-1 isolate 131 (reverse transcriptase changes: M41L P176S M184V T200A R211K T215Y, study 28)”, the “fold change of IC50” value in the test with zalcitabine is 2; with stavudine, 1.5; in the test with efavirenz, 0.7; with abacavir, 6.8; in the test with didanosine, 1.6; in the test with nevirapine it was 0.9. The “fold change of IC50” value with delavirdine worked out at 0.7; in the test with zidovudine, 6.2.

As to “HIV-1 isolate 81 (reverse transcriptase changes: K20R W24G L26W V35M M41L R83K K122E D123E M184V T200I T215Y, study 40)”, the “fold change of IC50” value in the test with zalcitabine amounted to 1; with stavudine it was 1; in the test with efavirenz, 1; with abacavir, 4; in the test with didanosine, 3; with nevirapine, 1. Besides, the “fold change of IC50” value is 1 in the test with delavirdine and 4 in the test with zidovudine.

Turning to “HIV-1 isolate 1513 (reverse transcriptase changes: M41L E44D K104R D123E I142V V179I Y181V T200I T215Y Q242K V245E A272P K277R E297K, study 40)”, the “fold change of IC50” value in the test with zalcitabine is 2; with stavudine it was 1; in the test with efavirenz it was 2; with abacavir, 4; with didanosine, 3; in the test with nevirapine, 166. Also, the entries for the “fold change of IC50” value with delavirdine and with zidovudine were 37 and 8, respectively.

For the test system “HIV-1 isolate 329 (reverse transcriptase changes: V35M T39A K70R D123E A158S I178L V179I V245E, study 40)”, the “fold change of IC50” value with zalcitabine is 2; in the test with stavudine, 1; with efavirenz, 4; in the test with abacavir, 1; with didanosine it was 2; with nevirapine, 8. The entries for the “fold change of IC50” value in the test with delavirdine and with zidovudine were 17 and 9, respectively.

As for “HIV-1 isolate 142 (reverse transcriptase changes: M41L S68G M184V Q207E T215Y, study 28)”, the “fold change of IC50” value turned out to be 1.6 with zalcitabine; 1.3 in the test with stavudine; 0.3 in the test with efavirenz; 4.7 in the test with abacavir; 1.4 with didanosine; 0.5 with nevirapine. In addition, the “fold change of IC50” value with delavirdine was 0.3; with zidovudine, 2.4.

As for “HIV-1 isolate 324 (reverse transcriptase changes: K22R L74V K102Q K103N I135L M184V Y188L T200A R211E V241A, study 40)”, the “fold change of IC50” value with zalcitabine was 2; with stavudine, 1; in the test with efavirenz, 186; with abacavir it was 11; with didanosine it was 7; in the test with nevirapine, 167. In addition, the “fold change of IC50” value in the test with delavirdine amounted to 208; with zidovudine, 1.

With “HIV-1 isolate 788 (reverse transcriptase changes: Q197K Q207E R211K L283I I293V E297K E312A, study 127)”, the “fold change of IC50” value with zalcitabine amounted to 1.1; in the test with stavudine, 1.1; with efavirenz, 1.3; with abacavir it was 0.7; in the test with didanosine it was 1.1; in the test with nevirapine it was 1.6. For the same test system, the entries for the “fold change of IC50” value with delavirdine and with zidovudine were 2.1 and 1.3, respectively.

Turning to “HIV-1 isolate 667 (reverse transcriptase changes: K102Q D123E M184V T200A Q207E T215Y A272P K277R I293V, study 119)”, the “fold change of IC50” value amounted to 2.2 with zalcitabine; 1.1 in the test with stavudine; 0.3 with efavirenz; 6.8 in the test with abacavir; 2.1 with didanosine; 0.4 with nevirapine. The “fold change of IC50” value turned out to be 0.2 with delavirdine and 1 with zidovudine.

Take “HIV-1 isolate 520 (reverse transcriptase changes: K20R D67G S68G K70R R211S T215F K219Q K281R E297K, study 109)”: the “fold change of IC50” value with zalcitabine was 1.3; with stavudine, 1.3; with efavirenz, 0.3; in the test with abacavir, 1.8; with didanosine it was 1.1; in the test with nevirapine, 0.3. For the same test system, the entries for the “fold change of IC50” value with delavirdine and with zidovudine were 0.5 and 31, respectively.
